# Measurements as given in article PMC7546796, “Myricanol Inhibits the Type III Secretion System of Salmonella enterica Serovar Typhimurium by Interfering With the DNA-Binding Activity of HilD” (Frontiers in Microbiology, 2020).
# For at least one entry, the source does not settle the construct or the ends of the probe. Where a protein sequence is shown, tags need not be part of it.
# Target: T1, HilD (UniProt P0CL08)
# T1 sequence (looked up, limits assumed): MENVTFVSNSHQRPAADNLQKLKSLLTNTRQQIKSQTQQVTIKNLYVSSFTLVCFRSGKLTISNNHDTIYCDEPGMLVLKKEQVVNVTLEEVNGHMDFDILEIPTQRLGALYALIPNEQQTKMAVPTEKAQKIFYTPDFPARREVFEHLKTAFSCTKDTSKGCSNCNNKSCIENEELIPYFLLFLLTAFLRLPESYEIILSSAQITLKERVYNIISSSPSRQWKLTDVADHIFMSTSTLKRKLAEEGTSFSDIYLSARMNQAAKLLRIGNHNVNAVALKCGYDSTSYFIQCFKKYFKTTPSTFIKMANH
# Test: EMSA
# Conditions: no myricanol; recombinant protein; label: 5' FAM on both primers; probe letters rebuilt from the primers and the genome
sequence,measurement,value
CTCTATTGCAATGAGGCCAAGTTAAATATGTAAATATTTAGATGCCCGGCGCTGACTCTCTCTGCACCAGGATATACGGCAGCGTCCATTCGATAATCACAGTTAGTTATAACAATATTATTACCAACATGTCAGTTATTTAAAGCACAGGCATAAGCTAAATAATCAAATGTTAAAAACATATAAACCCGAGCCCGTAGAATATGACATTAAGCTCATAATAAAAGCTCAACCTGACCGTTAGTACTAACAGCAGAATTACTGAAACAGTAGATTCTATCCTAACGACTTGTATTAGTTATTATAACTTTTCACCCTGTAAGAGAATACACTATTATCATGCCACATTTTAATCCTGTTCCTG (double strand) [hilA promoter],binding result,binds
